# Reference: publication PMC9729238 (Communications Biology, 2022)
# B1: α-bungarotoxin from Bungarus multicinctus (α-Bgtx) (natural protein)
# chain: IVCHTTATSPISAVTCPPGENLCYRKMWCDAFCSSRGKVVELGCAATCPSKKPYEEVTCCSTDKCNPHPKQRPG
# Key:
# [1] = target: α-bungarotoxin from Bungarus multicinctus (α-Bgtx) (Bungarus multicinctus) (UniProt P60615); test: SPR
# [2] = target: T1, Nicotinic acetylcholine receptor of α7 type (α7-nAChR) expressed in HEK293 cells (UniProt P36544 23-502); test: flow cytometry on cells
# T1 construct: also called full-length α7 receptor; α7 receptor
Molecule,Kd [1],IC50 [2]
Chimera of the α7-nAChR extracellular domain with acetylcholine-binding protein (α7-ECD) (domain or fragment),26 nM,
B1,,3.2 nM
